Results reported in article PMC6305410, “High-Throughput Screening for Bacterial Glycosyltransferase Inhibitors” (Frontiers in Cellular and Infection Microbiology, 2018).

Sequences of proteins named here, by UniProt entry; tags and fusion partners are left off. A change or cut given only in a name is not applied to a line headed by its entry.
UniProt P0DUJ8: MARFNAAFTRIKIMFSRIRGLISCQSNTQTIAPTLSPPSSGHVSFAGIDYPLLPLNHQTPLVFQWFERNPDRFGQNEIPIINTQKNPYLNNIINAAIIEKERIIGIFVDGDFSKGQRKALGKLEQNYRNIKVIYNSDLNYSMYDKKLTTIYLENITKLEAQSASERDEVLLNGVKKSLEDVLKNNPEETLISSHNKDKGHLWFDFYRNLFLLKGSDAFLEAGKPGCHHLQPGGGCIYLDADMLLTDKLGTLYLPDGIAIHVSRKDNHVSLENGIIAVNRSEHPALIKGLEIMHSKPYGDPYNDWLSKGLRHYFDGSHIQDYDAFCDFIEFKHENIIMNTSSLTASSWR

Target: SseK2 (Salmonella enterica, UniProt P0DUJ8)
Experiment: western blot of FADD arginine glycosylation
Details: 1 μM human FADD, 1 mM UDP-GlcNAc, 10 mM MnCl2, RT; for % inhibition: 200 nM enzyme, 50 mM Tris-HCl pH 7.4

## O=C(O)c1cc(-c2ccc(-c3c(-c4ccco4)noc3-c3ccccc3)cc2)nc2ccccc12 [KUC102644N]
  % inhibition: these compounds both inhibited FADD glycosylation by SseK2 in a concentration-dependent manner

## O=c1cc(-c2ccccc2Cl)oc2c(NS(=O)(=O)c3cc(Cl)cc(Cl)c3O)ccc(O)c12 [KUC100066N]
  % inhibition: these compounds both inhibited FADD glycosylation by SseK2 in a concentration-dependent manner

## CC(=O)N[C@H]1[C@@H](OP(=O)(O)OP(=O)(O)OC[C@H]2O[C@@H](n3ccc(=O)[nH]c3=O)[C@H](O)[C@@H]2O)O[C@H](CO)[C@@H](O)[C@@H]1O
pH 7.4
  western blot of FADD arginine glycosylation: SseK2 glycosylates the human FADD protein
